pIC50: −log10 of the molar value.
tested on: MERS-CoV pseudovirus

SMILES	pIC50
CC[C@H](C)[C@H](NC(=O)[C@H](Cc1ccc(O)cc1)NC(=O)[C@H](CO)NC(=O)[C@H](CC(=O)O)NC(=O)[C@H](CC(N)=O)NC(=O)[C@H](CC(C)C)NC(=O)[C@H](CCC(N)=O)NC(=O)[C@H](CCCCN)NC(=O)[C@@H](NC(=O)[C@@H](NC(=O)[C@H](CCC(=O)O)NC(=O)[C@H](CCC(N)=O)NC(=O)[C@H](CC(C)C)NC(=O)[C@H](CCSC)NC(=O)[C@H](C)NC(=O)[C@H](CCSC)NC(=O)[C@H](CCC(=O)O)NC(=O)[C@H](CC(=O)O)NC(=O)[C@H](CO)NC(=O)[C@H](CC(C)C)NC(=O)[C@H](CC(=O)O)NC(=O)[C@H](CC(C)C)NC(=O)[C@H](CC(C)C)NC(=O)[C@@H](NC(=O)[C@@H](NC(=O)[C@H](CC(N)=O)NC(=O)[C@@H](NC(=O)[C@H](CCCCN)NC(=O)[C@H](CO)NC(=O)[C@@H](NC(=O)[C@H](CCC(=O)O)NC(=O)[C@H](C)NC(=O)[C@H](Cc1ccccc1)NC(=O)[C@H](CC(N)=O)NC(=O)[C@@H]1CCCN1C(=O)CN)[C@@H](C)CC)[C@@H](C)CC)[C@@H](C)O)[C@@H](C)O)C(C)C)C(C)C)C(=O)O [HKU4-HR2P1]	5.67
CC[C@H](C)[C@H](NC(=O)[C@H](Cc1ccc(O)cc1)NC(=O)[C@H](CO)NC(=O)[C@H](CC(=O)O)NC(=O)[C@H](CC(N)=O)NC(=O)[C@H](CC(C)C)NC(=O)[C@H](CCC(N)=O)NC(=O)[C@H](CCCCN)NC(=O)[C@@H](NC(=O)[C@@H](NC(=O)[C@H](CCC(=O)O)NC(=O)[C@H](CCC(N)=O)NC(=O)[C@H](CC(C)C)NC(=O)[C@H](CCSC)NC(=O)[C@H](C)NC(=O)[C@H](CCSC)NC(=O)[C@H](CCC(=O)O)NC(=O)[C@H](CC(=O)O)NC(=O)[C@H](CO)NC(=O)[C@H](CC(C)C)NC(=O)[C@H](CC(=O)O)NC(=O)[C@H](CC(C)C)NC(=O)[C@H](CC(C)C)NC(=O)[C@@H](NC(=O)[C@@H](NC(=O)[C@H](CC(N)=O)NC(=O)[C@@H](NC(=O)[C@H](CCCCN)NC(=O)[C@H](CO)NC(=O)[C@@H](NC(=O)[C@@H](N)CCC(=O)O)[C@@H](C)CC)[C@@H](C)CC)[C@@H](C)O)[C@@H](C)O)C(C)C)C(C)C)C(=O)N[C@@H](CC(=O)O)C(=O)N[C@@H](CC(C)C)C(=O)N[C@@H](CCCCN)C(=O)N[C@@H](CCC(=O)O)C(=O)N[C@@H](CC(C)C)C(=O)O [HKU4-HR2P2]	6.47
CC[C@H](C)[C@H](NC(=O)[C@H](Cc1ccc(O)cc1)NC(=O)[C@H](CO)NC(=O)[C@H](CC(=O)O)NC(=O)[C@H](CC(N)=O)NC(=O)[C@H](CC(C)C)NC(=O)[C@H](CCC(N)=O)NC(=O)[C@H](CCCCN)NC(=O)[C@@H](NC(=O)[C@@H](NC(=O)[C@H](CCC(=O)O)NC(=O)[C@H](CCC(N)=O)NC(=O)[C@H](CC(C)C)NC(=O)[C@H](CCSC)NC(=O)[C@H](C)NC(=O)[C@H](CCSC)NC(=O)[C@H](CCC(=O)O)NC(=O)[C@H](CC(=O)O)NC(=O)[C@H](CO)NC(=O)[C@H](CC(C)C)NC(=O)[C@H](CC(=O)O)NC(=O)[C@@H](N)CC(C)C)C(C)C)C(C)C)C(=O)N[C@@H](CC(=O)O)C(=O)N[C@@H](CC(C)C)C(=O)N[C@@H](CCCCN)C(=O)N[C@@H](CCC(=O)O)C(=O)N[C@@H](CC(C)C)C(=O)NCC(=O)N[C@@H](CC(N)=O)C(=O)N[C@@H](Cc1ccc(O)cc1)C(=O)N[C@H](C(=O)N[C@@H](Cc1ccc(O)cc1)C(=O)N[C@@H](Cc1ccc(O)cc1)C(=O)N[C@@H](CC(N)=O)C(=O)N[C@@H](CCCCN)C(=O)N[C@@H](Cc1c[nH]c2ccccc12)C(=O)O)[C@@H](C)O [HKU4-HR2P3]	6.32
CC[C@H](C)[C@H](NC(=O)[C@H](Cc1ccc(O)cc1)NC(=O)[C@H](CO)NC(=O)[C@H](CCC(=O)O)NC(=O)[C@H](CC(N)=O)NC(=O)[C@H](CC(C)C)NC(=O)[C@H](C)NC(=O)[C@H](CCCCN)NC(=O)[C@@H](NC(=O)[C@@H](NC(=O)[C@H](CCC(N)=O)NC(=O)[C@H](CCC(N)=O)NC(=O)[C@H](CC(C)C)NC(=O)[C@H](CO)NC(=O)[C@H](CC(C)C)NC(=O)[C@H](CCSC)NC(=O)[C@H](CCC(=O)O)NC(=O)[C@H](Cc1ccc(O)cc1)NC(=O)[C@@H](NC(=O)[C@H](CC(C)C)NC(=O)[C@H](CC(=O)O)NC(=O)[C@H](CC(C)C)NC(=O)[C@H](CC(C)C)NC(=O)[C@@H](NC(=O)[C@@H](NC(=O)[C@H](CC(N)=O)NC(=O)[C@@H](NC(=O)[C@H](CCC(N)=O)NC(=O)[C@@H](NC(=O)[C@H](CC(C)C)NC(=O)[C@@H](N)CO)[C@@H](C)O)[C@@H](C)CC)[C@@H](C)O)[C@@H](C)O)[C@@H](C)O)C(C)C)C(C)C)C(=O)N[C@@H](CC(=O)O)C(=O)N[C@@H](CC(C)C)C(=O)N[C@@H](CCCCN)C(=O)N[C@@H](CCC(=O)O)C(=O)N[C@@H](CC(C)C)C(=O)O [MERS-HR2P, reference compound]	5.94

Reference: paper PMC6357153 (Viruses, 2019)
